The results in this text go back to patent publication US10987371B2 (priority 2017, dated 2021).

For this experiment, the system named is VSV.

Turning to `O=c1c(O[C@@H]2O[C@H](CO)[C@@H](O)[C@H](O)[C@H]2O)c(-c2ccc(O)c(O)c2)oc2cc(O)cc(O)c12` [Q3G, Quercetin-3-β-O-D-glucoside], the “effect on wildtype VSV replication” value (10 μM Q3G only as a pre-treatment (1 h), Vero E6) is reported as “no effect”. The “decrease of wildtype VSV titers” value (10 μM Q3G pre-treatment and kept in presence of Q3G throughout replication) was 5 logs.
